Fold change is the IC50 on the isolate divided by the IC50 on a reference virus; 1 = unchanged, higher = more resistant. Changes are given against the subtype B consensus. No active / inactive call. The values were gathered from many studies (numbered anew) with different assays, which the source does not name. Most viruses are clinical isolates; some are laboratory strains or clones with known resistance changes. Isolates with mixed residues are left out; stretches that were not sequenced show no change. Round top values that many isolates share are read here as limits; other very high values and 0.1 may be limits too. The protease changes I3V and N37S, insertions and deletions cannot be read from the source.
What was measured:
Test in all cases: fold change of IC50 against reference virus; higher = more resistant; Cell-culture drug susceptibility tests of virus bearing the protease of each isolate, gathered from many studies.
[1] = compound: CC(C)(C)NC(=O)[C@@H]1C[C@@H]2CCCC[C@@H]2CN1C[C@@H](O)[C@H](Cc1ccccc1)NC(=O)[C@H](CC(N)=O)NC(=O)c1ccc2ccccc2n1 [saquinavir]
[2] = compound: CC(C)(C)NC(=O)[C@@H]1CN(Cc2cccnc2)CCN1C[C@@H](O)C[C@@H](Cc1ccccc1)C(=O)N[C@H]1c2ccccc2C[C@H]1O [indinavir]
[3] = compound: CC(C)c1nc(CN(C)C(=O)N[C@H](C(=O)N[C@@H](Cc2ccccc2)C[C@H](O)[C@H](Cc2ccccc2)NC(=O)OCc2cncs2)C(C)C)cs1 [ritonavir]

Test System | fold change of IC50 against reference virus [1] | fold change of IC50 against reference virus [2] | fold change of IC50 against reference virus [3]
HIV-1 isolate 1385 (protease changes: L10I M46I L63P I66V V77I I84V N88T I93L, study 130) | 8 | 30 | 8
HIV-1 isolate 617 (protease changes: L10I L24I M46L I54V L63P A71V V82A, study 130) | 1 | 30 | 8
HIV-1 isolate 675 (protease changes: K20R L33F M36I I54V V82S, study 38) | 1 | 4 | 17
HIV-1 isolate 320 (protease changes: R41K I54V I62V L63P V77I V82A, study 130) | 4 | 30 | 8
HIV-1 isolate 1176 (protease changes: I13V V32I M46I I47V L63P I64V L90M Q92K I93L, study 130) | 1 | 8 | 8
HIV-1 isolate 10 (protease changes: L10Y L63P I64V I84V L90M, study 57) | 6 | 2 | 1
HIV-1 isolate 898 (protease changes: V32I M46I L63A I64M A71V I72V V82A Q92R, study 130) | 1 | 15 | 8
HIV-1 isolate 387 (protease changes: Q18L A71V V77I I84V L90M, study 57) | 16 | 3 | 4
HIV-1 isolate 807 (protease changes: M46I L63P, study 91) | 1 | 1 | 1.8
HIV-1 isolate 1006 (protease changes: M46I L63P V82T I84V, study 91) | 8 | 8 | 3.7
HIV-1 isolate 697 (protease changes: R57G I84V, study 5) | 2 | 5 | 7
HIV-1 isolate 1445 (protease changes: I15V V32I E35D M36I L63P A71V V82A, study 130) | 1 | 4 | 8
HIV-1 isolate 166 (protease changes: M46I L63P V82T, study 91) | 1 | 4 | 3.7
HIV-1 isolate 737 (protease changes: L10I I15V L24I M36I P39S I54V I62V L63P A71V V82A, study 130) | 2 | 8 | 8
HIV-1 isolate 261 (protease changes: L10R M46I V82T, study 91) | 1 | 2 | 1.8
HIV-1 isolate 836 (protease changes: L24I M46I I64V E65I V82F I93L, study 130) | 1 | 4 | 2

Test System | fold change of IC50 against reference virus [1] | fold change of IC50 against reference virus [2] | fold change of IC50 against reference virus [3]
HIV-1 isolate 1404 (protease changes: L10R M46I, study 91) | 1 | 1 | 1
HIV-1 isolate 251 (protease changes: L63P V82T, study 91) | 1 | 1 | 1.8
HIV-1 isolate 730 (protease changes: L10R M46I L63P, study 91) | 1 | 0.5 | 1
HIV-1 isolate 1639 (protease changes: V32I E35D N37D M46I I47V L63P G73S V77I L90M I93L, study 130) | 4 | 4 | 4
HIV-1 isolate 771 (protease changes: M46I L63P, study 91) | 1 | 0.5 | 1
HIV-1 isolate 902 (protease changes: L10R L63P, study 91) | 1 | 0.5 | 1
HIV-1 isolate 1144 (protease changes: L10I M36I L63H L90M, study 82) | 1.5 | 0.5 | 1.4
HIV-1 isolate 110 (protease changes: L10I Q18E K20R L33I E35D M36I I54V L63P V82F L89M I93L, study 130) | 1 | 1 | 8
HIV-1 isolate 140 (protease changes: L10R L63P V82T I84V, study 91) | 4 | 1 | 1.8
HIV-1 isolate 1555 (protease changes: I13V L63A V82I, study 57) | 2 | 2 | 1
HIV-1 isolate 98 (protease changes: L10H L24I E35D N37D M46I L63P V82A Q92K, study 130) | 4 | 8 | 8
HIV-1 isolate 944 (protease changes: R57G V82F, study 5) | 2 | 3 | 5
HIV-1 isolate 1166 (protease changes: V32F V82S, study 38) | 1 | 4 | 3
HIV-1 isolate 420 (protease changes: E35D N37D I54V L63P V82A, study 130) | 1 | 4 | 8
HIV-1 isolate 1133 (protease changes: L10I Q18E K20R L33I E35D M36I I54V L63P V82F L89M L90M I93L, study 130) | 1 | 30 | 8
